Data as given in PubChem BioAssay AID624099 (ICCB-Longwood, 2012).
The deposit covers about 21,000 reagents; shown is an unselected part. 497 of all reagents (2.4%) were called active. 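Higher z means weaker E2 silencing; only reporter increases were scored, and knock-downs that hurt cell survival may mask genuine repressor factors.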 Reagents against one gene are numbered here. No sequences are given here.

Purpose: 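Host factors E2 relies on to silence an HPV18 LCR reporter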 (primary screen)
Cell system: human C33A cervical carcinoma cells (HPV-negative) stably expressing BPV1 E2 and an HPV18 LCR luciferase reporter
Reagents: siRNA pool against human genes, 40 nM
Time to read-out: 72 h
Measurement: 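Per-well luciferase luminescence, z-scored on each plate against the plate mean and SD with control wells left out, then averaged across three replicate plates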
Scale: mean z-score and z-score: higher = stronger reporter signal, weaker E2 silencing
Hit rule: 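Mean z ≥ 2 together with z ≥ 2 in two or more of the three replicates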

| target | reagent | mean z-score | z-score, replicate A | z-score, replicate B | z-score, replicate C | outcome |
| --- | --- | --- | --- | --- | --- | --- |
| SND1 (GeneID 27044) | 1 | -0.52 | -0.47 | -0.7 | -0.4 | inactive |
| BECN1 (GeneID 8678) | 1 | -0.44 | -0.77 | -0.43 | -0.12 | inactive |
| PCDHB3 (GeneID 56132) | 1 | -0.47 | -0.25 | -0.4 | -0.75 | inactive |
| KRAS (GeneID 3845) | 1 | -0.57 | -0.64 | -0.68 | -0.37 | inactive |
| EIF3B (GeneID 8662) | 1 | -2.71 | -2.69 | -2.89 | -2.56 | inactive |
| OR10J3 (GeneID 441911) | 1 | -0.01 | 0.16 | -0.07 | -0.12 | inactive |
| FARP1 (GeneID 10160) | 1 | 1.84 | 1.66 | 1.59 | 2.28 | inactive |
| PRR13 (GeneID 54458) | 1 | 0.84 | 0.86 | 0.86 | 0.79 | inactive |
| CPSF7 (GeneID 79869) | 1 | -0.6 | -0.4 | -0.58 | -0.81 | inactive |
| AAR2 (GeneID 25980) | 1 | -0.03 | -0.14 | -0.04 | 0.08 | inactive |
| RNASE3 (GeneID 6037) | 1 | -0.11 | -0.55 | -0.02 | 0.24 | inactive |
| TP53TG3 (GeneID 24150) | 1 | 0.75 | 0.77 | 0.84 | 0.64 | inactive |
| QSOX2 (GeneID 169714) | 1 | -0.31 | -0.48 | 0.33 | -0.77 | inactive |
| MPZL2 (GeneID 10205) | 1 | 0.1 | 0.06 | 0.04 | 0.19 | inactive |
| IFT20 (GeneID 90410) | 1 | -0.52 | -0.25 | -0.65 | -0.66 | inactive |
| LOC400010 (retired record) (GeneID 400010) | 1 | 0.06 | 0.26 | -0.23 | 0.15 | inactive |
| SLC19A1 (GeneID 6573) | 1 | -0.83 | -1.01 | -0.69 | -0.78 | inactive |
| GTSF1 (GeneID 121355) | 1 | -0.3 | 0.02 | -0.45 | -0.47 | inactive |
| ADRB1 (GeneID 153) | 1 | -0.24 | -0.42 | -0.18 | -0.11 | inactive |
| FTMT (GeneID 94033) | 1 | -0.58 | -0.23 | -0.75 | -0.76 | inactive |
| RAB31 (GeneID 11031) | 1 | -0.57 | -0.54 | -0.66 | -0.51 | inactive |
| ENGASE (GeneID 64772) | 1 | -0.57 | -0.49 | -0.79 | -0.42 | inactive |
| NME6 (GeneID 10201) | 1 | 0.67 | 0.69 | 0.78 | 0.55 | inactive |
| LOC401307 (retired record) (GeneID 401307) | 1 | -0.99 | -0.75 | -1.39 | -0.84 | inactive |
| EYA3 (GeneID 2140) | 1 | -0.64 | -0.21 | -1.07 | -0.64 | inactive |
| PIP5K1A (GeneID 8394) | 1 | -0.15 | -0.27 | -0.3 | 0.12 | inactive |
| ADRB2 (GeneID 154) | 1 | 1 | 0.94 | 0.8 | 1.25 | inactive |
| LOC389689 (retired record) (GeneID 389689) | 1 | 0.1 | 0.06 | -0.11 | 0.35 | inactive |
| SELENOM (GeneID 140606) | 1 | 0.28 | 0.38 | 0.34 | 0.11 | inactive |
| IQCM (GeneID 285423) | 1 | -0.16 | 0 | -0.31 | -0.17 | inactive |
| EBF3 (GeneID 253738) | 1 | -1.16 | -1.02 | -1.36 | -1.09 | inactive |
| F7 (GeneID 2155) | 1 | 0.41 | 0.31 | 0.42 | 0.49 | inactive |
| RALGAPB (GeneID 57148) | 1 | 0.7 | 0.91 | 0.6 | 0.59 | inactive |
| ZDHHC14 (GeneID 79683) | 1 | 0.22 | -0.04 | 0.22 | 0.47 | inactive |
| STRADBP1 (GeneID 389599) | 1 | -0.66 | -0.6 | -0.8 | -0.57 | inactive |

Looked up above.
Result of PCDHB3 (GeneID 56132) in “z-score, replicate B”: -0.4
SELENOM (GeneID 140606), outcome → inactive
STRADBP1 (GeneID 389599), mean z-score = -0.66
For “outcome”, EIF3B (GeneID 8662) has inactive
ENGASE (GeneID 64772), z-score, replicate A = -0.49
IQCM (GeneID 285423), z-score, replicate A: 0

The list goes on.
| target | reagent | mean z-score | z-score, replicate A | z-score, replicate B | z-score, replicate C | outcome |
| --- | --- | --- | --- | --- | --- | --- |
| KIAA1755 (GeneID 85449) | 1 | 0.15 | 0.29 | 0.25 | -0.1 | inactive |
| DUSP8 (GeneID 1850) | 1 | 0.9 | 0.92 | 0.98 | 0.78 | inactive |
| LOC729698 (retired record) (GeneID 729698) | 1 | 0.22 | 0.14 | 0.24 | 0.28 | inactive |
| LOC729698 (retired record) (GeneID 729698) | 2 | 0.11 | 0.11 | -0.44 | 0.65 | inactive |
| LOC729698 (retired record) (GeneID 729698) | 3 | 0.05 | 0.15 | -0.04 | 0.04 | inactive |
| LOC729698 (retired record) (GeneID 729698) | 4 | 0.55 | 0.77 | 0.25 | 0.63 | inactive |
| LOC729698 (retired record) (GeneID 729698) | 5 | -0.12 | 0.15 | -0.07 | -0.43 | inactive |
| LOC729698 (retired record) (GeneID 729698) | 6 | 0.46 | 0.56 | 0.24 | 0.58 | inactive |
| TRIB1 (GeneID 10221) | 1 | -1.48 | -1.87 | -1.25 | -1.32 | inactive |
| TCP10L (GeneID 140290) | 1 | 0.44 | 0.33 | 0.39 | 0.61 | inactive |
| TCP10L (GeneID 140290) | 2 | -1.42 | -1.78 | -1.78 | -0.69 | inactive |
| LOC343705 (retired record) (GeneID 343705) | 1 | 2.1 | 2 | 2.42 | 1.88 | inactive |
| FNTA (GeneID 2339) | 1 | -0.18 | -0.26 | -0.38 | 0.12 | inactive |
| RGS9BP (GeneID 388531) | 1 | -0.36 | -0.47 | -0.52 | -0.1 | inactive |
| GNAT1 (GeneID 2779) | 1 | -1.01 | -1.01 | -1.07 | -0.94 | inactive |
| TUBG2 (GeneID 27175) | 1 | -1.62 | -0.96 | -1.94 | -1.95 | inactive |
| MYO18B (GeneID 84700) | 1 | 1.06 | 1.18 | 0.89 | 1.1 | inactive |
| PAQR7 (GeneID 164091) | 1 | -0.16 | -0.1 | -0.29 | -0.08 | inactive |
| AIMP1 (GeneID 9255) | 1 | -0.08 | 0.05 | -0.12 | -0.18 | inactive |
| C1orf21 (GeneID 81563) | 1 | -0.07 | 0.19 | 0.23 | -0.63 | inactive |
| CFI (GeneID 3426) | 1 | -0.46 | -0.13 | -0.42 | -0.82 | inactive |
| RGR (GeneID 5995) | 1 | 1.54 | 2.09 | 1.23 | 1.29 | inactive |
| EPB41L5 (GeneID 57669) | 1 | 0.64 | 0.85 | 0.71 | 0.37 | inactive |
| CARTPT (GeneID 9607) | 1 | -1.84 | -1.92 | -1.83 | -1.77 | inactive |
| PDE6D (GeneID 5147) | 1 | 0.08 | -0.35 | -0.27 | 0.86 | inactive |
| NEK10 (GeneID 152110) | 1 | -0.08 | 0.25 | -0.44 | -0.06 | inactive |
| OR7E31P (GeneID 375601) | 1 | -0.47 | -0.49 | -0.61 | -0.32 | inactive |
| ANKRD49 (GeneID 54851) | 1 | -0.93 | -1.24 | -0.65 | -0.89 | inactive |
| FAM149A (GeneID 25854) | 1 | -0.9 | -0.96 | -0.87 | -0.86 | inactive |
| TIMD4 (GeneID 91937) | 1 | -0.26 | -0.06 | -0.21 | -0.52 | inactive |
| RAB26 (GeneID 25837) | 1 | -0.12 | -0.1 | -0.13 | -0.15 | inactive |
| RBM14 (GeneID 10432) | 1 | 0.87 | 0.85 | 0.34 | 1.42 | inactive |
| RBM14 (GeneID 10432) | 2 | 0.73 | 0.64 | 0.6 | 0.95 | inactive |
| GPHN (GeneID 10243) | 1 | -0.62 | -0.9 | -0.38 | -0.57 | inactive |
| EXO5 (GeneID 64789) | 1 | 0.53 | 0.41 | 0.65 | – | inactive |
| ASZ1 (GeneID 136991) | 1 | -0.67 | -0.73 | -0.58 | -0.7 | inactive |
| RPL17P5 (GeneID 388132) | 1 | -4.76 | -4.88 | -4.98 | -4.42 | inactive |
| RAB39A (GeneID 54734) | 1 | 1.72 | 1.78 | 1.69 | 1.7 | inactive |
